Measurements from patent US20100029568A1, “TIGHTER-BINDING C-PEPTIDE INHIBITORS OF HIV-1 ENTRY” (priority 2007, published 2010).

Tested on: HIV-1 Res 4 (SDTV)
Type: cell-based
Conditions: Table 2

CC[C@H](C)[C@H](NC(=O)[C@H](CC(C)C)NC(=O)[C@H](CO)NC(=O)[C@H](Cc1c[nH]cn1)NC(=O)[C@@H](NC(=O)[C@H](CC(C)C)NC(=O)[C@H](CO)NC(=O)[C@@H](NC(=O)[C@H](Cc1ccc(O)cc1)NC(=O)[C@H](CCCCN)NC(=O)[C@H](CC(N)=O)NC(=O)[C@@H](NC(=O)[C@H](CCC(=O)O)NC(=O)[C@H](CCCNC(=N)N)NC(=O)[C@H](CC(=O)O)NC(=O)[C@H](Cc1c[nH]c2ccccc12)NC(=O)[C@H](CCC(=O)O)NC(=O)[C@H](CCSC)NC(=O)[C@H](Cc1c[nH]c2ccccc12)NC(=O)[C@@H](NC(=O)[C@@H](NC(=O)[C@H](Cc1c[nH]cn1)NC(=O)CNC(=O)CN)[C@@H](C)O)[C@@H](C)O)[C@@H](C)CC)[C@@H](C)CC)[C@@H](C)CC)C(=O)N[C@@H](CCC(=O)O)C(=O)N[C@@H](CCC(=O)O)C(=O)N[C@@H](CO)C(=O)N[C@@H](CCC(N)=O)C(=O)N[C@@H](CC(N)=O)C(=O)N[C@@H](CCC(N)=O)C(=O)N[C@@H](CCC(N)=O)C(=O)N[C@@H](CCC(=O)O)C(=O)N[C@@H](CCCCN)C(=O)N[C@@H](CC(N)=O)C(=O)N[C@@H](CCC(=O)O)C(=O)N[C@@H](CCC(N)=O)C(=O)N[C@@H](CCC(=O)O)C(=O)N[C@@H](CC(C)C)C(=O)N[C@@H](CC(C)C)C(=O)NCC(=O)NCC(=O)N[C@@H](Cc1c[nH]cn1)C(=O)N[C@@H](Cc1c[nH]cn1)C(=O)N[C@@H](Cc1c[nH]cn1)C(=O)N[C@@H](Cc1c[nH]cn1)C(=O)N[C@@H](Cc1c[nH]cn1)C(=O)N[C@@H](Cc1c[nH]cn1)C(=O)O [C37-KYI]
IC50: 0.6 ± 0.1 nM
